The record followed here is patent US20070072177A1 (CRUCELL HOLLAND B V, published 2007).

Numbering of substitutions follows the chain as printed.

T1: glycoprotein of rabies virus strain CVS-11 (rabies virus strain CVS-11, UniProt O92284 20-524)
T1 sequence: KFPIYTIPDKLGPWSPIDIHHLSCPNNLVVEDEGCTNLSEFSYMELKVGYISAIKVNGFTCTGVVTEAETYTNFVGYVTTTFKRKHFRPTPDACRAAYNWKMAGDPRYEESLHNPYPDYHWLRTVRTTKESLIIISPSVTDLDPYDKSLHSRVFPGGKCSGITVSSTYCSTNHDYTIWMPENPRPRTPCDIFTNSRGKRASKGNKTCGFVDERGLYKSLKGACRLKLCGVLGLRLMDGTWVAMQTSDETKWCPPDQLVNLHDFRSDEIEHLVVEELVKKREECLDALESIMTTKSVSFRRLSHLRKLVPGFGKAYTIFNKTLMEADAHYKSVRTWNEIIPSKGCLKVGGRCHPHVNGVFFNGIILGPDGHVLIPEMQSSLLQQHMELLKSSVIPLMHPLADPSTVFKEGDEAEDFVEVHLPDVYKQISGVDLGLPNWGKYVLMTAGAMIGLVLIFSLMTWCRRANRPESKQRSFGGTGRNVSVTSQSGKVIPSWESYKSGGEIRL

B1: SC04-164 (scFv)
scFv: AMAEVQLVESGGGVVQPGRSLRLSCAASGFTFSSYGMHWVRQAPGKGLEWVAVISYDGSSKYYADSVKGRFTISRDNSKNTLYLQMNSLRAEDTAVYYCAKGSVLGDAFDIWGQGTMVTVSSGTGGSGGTGSGTGGSTDIQLTQSPSSVSASVGDRVTITCRASQGISSWLAWYQQKPGKAPKLLIYAASSLQSGVPSRFSGSGSGTDFTLTISSLQPEDFATYYCQQANSFPLTFGGGTKVDIKRAAA
B2: SC04-031 (scFv)
scFv: B1 scFv with S60N, L142M, S148F, D243E
B3: SC04-026 (scFv)
scFv: AMAEVQLVESGAEVKKPGESLKISCKGSGYNFPYSWIAWVRQMPGKGLEWMGIIFPGDSDTRYSPPFQGQVTISADNSKSTAYLQWSSLKASDTAMYYCARTSNWNYLDRFDPWGQGTLVTVSSGTGGSGGTGSGTGGSTDVVMTQSPLSLPVTPGEPASISCRSSQSLLHSNGHDYLDWYVQKPGQSPQPLIYLGSDRASGVPDRFSGSGSGTHFTLNISRVEAEDVGVYYCMQSLQTPWTFGQGTKLEIKRAAA
B4: SC04-010 (scFv)
scFv: AMAQVQLVQSGGDLVQPGRSLRLSCAASGFTFSSYGMHWVRQAPGKGLEWVADISYDGSNKYYADSVKGRFTISRDNSKNTLYLQMNSLRAEDTAVYYCAKDGLDLTGTIQPFGYWGQGTLVTVSSGTGGSGGTGSGTGGSTDIQMTQSPSSLSASVGDRVTITCRASQGIRNDLGWYQQKPGKAPKLLIYAASSLQSGVPSRFSGSGSGTDFTLTISSLQPEDFATYYCLQDYNYPRTFGQGTKVEIKRAAA
B5: SC04-008 (scFv)
scFv: AMAQVTLKESGPTLVKPTQTLTLTCTFSGFSLSTSGVGVGWIRQPPGKALEWLARIDWDDDKYYSTSLKTRLTISKDTSKNQVVLTMTNMDPVDTATYYCARMGFTGTYFDYWGQGTLVTVSSGTGGSGGTGSGTGGSTQAVLTQPSSVSVAPGETASVTCGGDNIGSKSVHWYQKKPGQAPVLVVFDDSDRPSGIPERFSGSTSGNTAALTISRVEAGDEADYYCQVWDSSNDHLYVFGPGTQLTVLSAAA
B6: SC04-018 (scFv)
scFv: AMAEVQLVESGPGLVRPSGTLSLTCAVSGGSISSSNWWSWVRQPPGKGLEWIGEIYHSGSTNYNPSLKSRVTISVDKSKNQFSLKLSSVTAADTAVYYCARVSVTTGAFNIWGQGTMVTVSSGTGGSGGTGSGTGGSTQPVLTQPLSASGTPGQRVTISCSGDTSNIGSNTVHWYQRLPGTAPKLLIHNNNQRPSGVPDRFSGAKSGTSASLAISGLQSEDEADYFCAAWDDNLNGYVFGTGTKVTVLGAAA
B7: SC04-021 (scFv)
scFv: AMAEVQLVESGGGVVQPGRSLRLSCAASGFTFSSYGMHWVRQAPGKGLEWVAVISYDGSSKYYADSVKGRFTISRDNSKNTLYLQMNSLRAEDTAVYYCAKGSVLGDAFDIWGQGTMVTVSSGTGGSGGTGSGTGGSTDIQMTQSPFSLSASVGDRVTITCRASQGIGSSLAWYQQKPGKAPKLLIYAASSLQSGVPSRFSGSGSGTDFTLTISSLQPEDFATYFCLQHHDYPLTFGGGTKLEIKRAAA
B8: scFv SO57 (scFv)
scFv: AMAQVQLVQSGAEVKKPGSSVKVSCKASGGTFNRYTVNWVRQAPGQGLEWMGGIIPIFGTANYAQRFQGRLTITADESTSTAYMELSSLRSDDTAVYFCARENLDNSGTYYYFSGWFDPWGQGTLVTVSSGTGGSGGTGSGTGGSTQSALTQPRSVSGSPGQSVTISCTGTSSDIGGYNFVSWYQQHPGKAPKLMIYDATKRPSGVPDRFSGSKSGNTASLTISGLQAEDEADYYCCSYAGDYTPGVVFGGGTKLTVLGAAA

One experiment addresses T1, glycoprotein of rabies virus strain …. Briefly: cell-based or functional assay.
As for B1, the 50% endpoint dilution worked out at 45 dilution.
The same measure, in the same setting: the value for B2 was 90 dilution; that for B3 was 45 dilution; that for B4 was 810 dilution.
On the same count and under the same terms, the value for B5 was > 10900 dilution; that for B6 was 15 dilution.
On the same count and under the same terms, the value for B7 was 270 dilution.

For another experiment, the target named is 5% FBS preparation. The experiment in a line: phage ELISA on coated 5% FBS, anti-M13-HRP. (In general: In an ELISA, binding on a coated surface is turned into a signal by an enzyme label.)
Regarding B1, the “OD 492 nm” value is 0.057 OD 492 nm.
Same read-out and setting: the value for B2 was 0.065 OD 492 nm; that for B3 was 0.054 OD 492 nm.
The same measure, in the same setting: for B4 the value was 0.043 OD 492 nm; for B5, 0.058 OD 492 nm.
Still for that read-out and setting: for B6 the value was 0.052 OD 492 nm; for B7, 0.052 OD 492 nm; for B8, 0.055 OD 492 nm.
